For one substance, Km and kcat/Km results are on record in PMC3866925, “Functional characterization of two members of histidine phosphatase superfamily in Mycobacterium tuberculosis” (BMC Microbiology, 2013).

The data set relates to O=C(O)[C@H](O)COP(=O)(O)O. The data set is described as follows: purified protein. Particulars: pH 7.0.

For orientation: Km means the concentration of substrate that gives half-maximal velocity. One may read the kcat/Km as the second-order rate constant that governs catalysis at low substrate concentration. For the substance “C-His-Rv0489 (Mycobacterium tuberculosis H37Rv)”, the Km was 400 ± 20 µM and the kcat/Km was determined as 1.04e+07 M⁻¹ s⁻¹.
